# Mutational interference map of HIV-1 RNA dimerization

Source: Ye et al. 2022 (doi:10.1038/s41594-022-00746-2), supplementary data.

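Randomly mutated transcripts starting with one, two or three G (1G, 2G, 3G), capped or uncapped, were folded for 30 min at 37 °C. Monomer and dimer bands were cut from native gels after folding in high salt (300 mM KCl, 5 mM MgCl2) or low salt (40 mM KCl, 0.1 mM MgCl2). Kdimer compares mutation frequencies in monomer and dimer, corrected for sequencing errors.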

The 5' region of HIV-1 NL4-3 RNA (positions 1-437):
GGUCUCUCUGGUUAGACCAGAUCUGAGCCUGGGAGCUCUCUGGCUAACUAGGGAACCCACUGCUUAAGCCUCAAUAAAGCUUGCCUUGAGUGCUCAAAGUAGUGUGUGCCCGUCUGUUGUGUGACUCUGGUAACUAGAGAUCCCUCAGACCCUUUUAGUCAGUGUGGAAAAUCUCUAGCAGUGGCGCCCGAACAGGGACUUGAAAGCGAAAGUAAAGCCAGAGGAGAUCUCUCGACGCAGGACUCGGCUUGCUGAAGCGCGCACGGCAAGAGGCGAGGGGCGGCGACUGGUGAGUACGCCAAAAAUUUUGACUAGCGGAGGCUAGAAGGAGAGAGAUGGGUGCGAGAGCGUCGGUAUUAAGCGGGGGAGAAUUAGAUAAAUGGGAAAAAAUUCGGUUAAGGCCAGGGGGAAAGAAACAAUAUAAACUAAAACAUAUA

Values are log2 Kdimer, the median over the changes at each position: higher means that changes there hinder dimer formation, below 0 that they favour it. One numbering serves 1G, 2G and 3G. A position is written with its base.

- G104 -> 1G capped low-salt -0.11; 3G uncapped low-salt -0.21
- U105 -> 1G capped low-salt 0.13; 3G uncapped low-salt -0.03
- G106 -> 1G capped low-salt 0.49; 3G uncapped low-salt 0.80
- U107 -> 1G capped low-salt 0.15; 3G uncapped low-salt 1.13
- G108 -> 1G capped low-salt 0.04; 3G uncapped low-salt 0.01
- C109 -> 1G capped low-salt 0.59; 3G uncapped low-salt 1.45
- C110 -> 1G capped low-salt 0.71; 3G uncapped low-salt 1.35
- C111 -> 1G capped low-salt 0.90; 3G uncapped low-salt 1.51
- G112 -> 1G capped low-salt 0.14; 3G uncapped low-salt 1.13
- U113 -> 1G capped low-salt 0.30; 3G uncapped low-salt 0.68
- C114 -> 1G capped low-salt 0.11; 3G uncapped low-salt 0.73
- U115 -> 1G capped low-salt 0.36; 3G uncapped low-salt 0.65
- G116 -> 1G capped low-salt -0.35; 3G uncapped low-salt -0.48
- U117 -> 1G capped low-salt -0.30; 3G uncapped low-salt -0.17
- U118 -> 1G capped low-salt -0.12; 3G uncapped low-salt 0.08
- G119 -> 1G capped low-salt -0.22; 3G uncapped low-salt -0.52
- U120 -> 1G capped low-salt 0.32; 3G uncapped low-salt 0.97
- G121 -> 1G capped low-salt -0.57; 3G uncapped low-salt -0.36
- U122 -> 1G capped low-salt 0.36; 3G uncapped low-salt 0.81
- G123 -> 1G capped low-salt -0.36; 3G uncapped low-salt -0.14
- A124 -> 1G capped low-salt 0.11; 3G uncapped low-salt 0.71
- C125 -> 1G capped low-salt 0.37; 3G uncapped low-salt 0.67
- U126 -> 1G capped low-salt 0.30; 3G uncapped low-salt 0.89
- C127 -> 1G capped low-salt 0.40; 3G uncapped low-salt 0.87
- U128 -> 1G capped low-salt 0.37; 3G uncapped low-salt 0.85
- G129 -> 1G capped low-salt 0.56; 3G uncapped low-salt 1.03
- G130 -> 1G capped low-salt 0.30; 3G uncapped low-salt 0.85
- U131 -> 1G capped low-salt 0.22; 3G uncapped low-salt 0.78
- A132 -> 1G capped low-salt 0.06; 3G uncapped low-salt -0.12
- A133 -> 1G capped low-salt 0.11; 3G uncapped low-salt 0.20
- C134 -> 1G capped low-salt -0.17; 3G uncapped low-salt -0.14
- U135 -> 1G capped low-salt 0.00; 3G uncapped low-salt -0.08
- A136 -> 1G capped low-salt 0.02; 3G uncapped low-salt -0.17
- G137 -> 1G capped low-salt 0.49; 3G uncapped low-salt 0.39
- A138 -> 1G capped low-salt 0.58; 3G uncapped low-salt 0.48
- G139 -> 1G capped low-salt 0.48; 3G uncapped low-salt 0.51
- A140 -> 1G capped low-salt 0.32; 3G uncapped low-salt 0.35
- U141 -> 1G capped low-salt 0.10; 3G uncapped low-salt 0.53
- C142 -> 1G capped low-salt 0.01; 3G uncapped low-salt 0.23
- C143 -> 1G capped low-salt 0.09; 3G uncapped low-salt 0.16
- C144 -> 1G capped low-salt 0.19; 3G uncapped low-salt 0.06
- U145 -> 1G capped low-salt 0.15; 3G uncapped low-salt 0.09
- C146 -> 1G capped low-salt -0.01; 3G uncapped low-salt 0.27
- A147 -> 1G capped low-salt -0.03; 3G uncapped low-salt 0.09
- G148 -> 1G capped low-salt 0.13; 3G uncapped low-salt 0.21

The last 3 entries again:

position,1G capped low-salt,3G uncapped low-salt
C146,-0.01,0.27
A147,-0.03,0.09
G148,0.13,0.21